Measured data: PubChem BioAssay AID624099 (ICCB-Longwood, 2012)
In all, the deposit lists about 21,000 reagents; below is a random part of them. Of all reagents, 497 (2.4%) got an active call. 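Higher z means weaker E2 silencing; only reporter increases were scored, and knock-downs that hurt cell survival may mask genuine repressor factors.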

Aim: 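Knock-downs relieving repression by E2 of an HPV18 LCR luciferase reporter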 (primary screen)
Cells: human C33A cervical carcinoma cells (HPV-negative) stably expressing BPV1 E2 and an HPV18 LCR luciferase reporter
Reagent: siRNA pool against human genes, 40 nM
Timing: 72 h
Measurement: 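Per-well luciferase luminescence, z-scored on each plate against the plate mean and SD with control wells left out, then averaged across three replicate plates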
Scale: mean z-score and z-score: higher = stronger reporter signal, weaker E2 silencing
Active means: 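Hit if mean z-score reaches 2 and two or more of three replicate z-scores also reach 2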

ALDH2 (aldehyde dehydrogenase 2 family member)
- mean z-score: -0.77
- z-score, replicate A: -0.64
- z-score, replicate B: -0.86
- z-score, replicate C: -0.83
- activity call: inactive

HOXA11 (homeobox A11)
- mean z-score: 0.26
- z-score, replicate A: 0.03
- z-score, replicate B: 0.49
- z-score, replicate C: 0.26
- activity call: inactive

CDH17 (cadherin 17)
- mean z-score: 0.64
- z-score, replicate A: 0.65
- z-score, replicate B: 0.55
- z-score, replicate C: 0.72
- activity call: inactive

RHOD (ras homolog family member D)
- mean z-score: 0.2
- z-score, replicate A: 0.21
- z-score, replicate B: 0.2
- z-score, replicate C: 0.17
- activity call: inactive

As entered above:
For “z-score, replicate B”, RHOD (ras homolog family member D) has 0.2
Value of HOXA11 (homeobox A11) under “mean z-score”: 0.26

Additional results follow:
ZNF584 (zinc finger protein 584)
- mean z-score: -1.87
- z-score, replicate A: -2.06
- z-score, replicate B: -1.69
- z-score, replicate C: -1.84
- activity call: inactive

PELO (pelota mRNA surveillance and ribosome rescue factor)
- mean z-score: 1.59
- z-score, replicate A: 1.31
- z-score, replicate B: 1.68
- z-score, replicate C: 1.76
- activity call: inactive

DDX42 (DEAD-box helicase 42)
- mean z-score: -0.02
- z-score, replicate A: -0.35
- z-score, replicate B: 0.12
- z-score, replicate C: 0.17
- activity call: inactive

ZNF287 (zinc finger protein 287)
- mean z-score: 0.07
- z-score, replicate A: 0.55
- z-score, replicate B: 0.25
- z-score, replicate C: -0.59
- activity call: inactive

EPGN (epithelial mitogen)
- mean z-score: -0.19
- z-score, replicate A: -0.15
- z-score, replicate B: -0.01
- z-score, replicate C: -0.41
- activity call: inactive

MRPL38 (mitochondrial ribosomal protein L38)
- mean z-score: 0.33
- z-score, replicate A: 0.79
- z-score, replicate B: 0.16
- z-score, replicate C: 0.05
- activity call: inactive

PRAMEF12 (PRAME family member 12)
- mean z-score: 1.23
- z-score, replicate A: 1.75
- z-score, replicate B: 0.62
- z-score, replicate C: 1.34
- activity call: inactive

JDP2 (Jun dimerization protein 2)
- mean z-score: 0.13
- z-score, replicate A: 0.3
- z-score, replicate B: -0.21
- z-score, replicate C: 0.3
- activity call: inactive
